From PMC4549179, “Mutations in the DI-DII Linker of Human Parainfluenza Virus Type 3 Fusion Protein Result in Diminished Fusion Activity” (PLoS ONE, 2015)

B1: HPIV3 fusion (F) protein S370A (natural protein)
chain: not shown
modifications: cell-surface protein biotinylated with EZ-Link sulfo-NHS-SS-biotin
B2: HPIV3 fusion (F) protein V373A (natural protein)
chain: not shown
modifications: cell-surface protein biotinylated with EZ-Link sulfo-NHS-SS-biotin

Biological target: Human parainfluenza virus type 3 hemagglutinin-neuraminidase (HN) protein (human parainfluenza virus type 3, cell-surface protein biotinylated with EZ-Link sulfo-NHS-SS-biotin)
Assay: cell-based or functional assay

Binder | syncytium formation in BHK-21 cells coexpressing mutant F and HN
B1 | < 5 % of the wt F and HN level
B2 | < 5 % of the wt F and HN level
